Anti-infective test results gathered from many reports (values: NIAID ChemDB through PubChem).

All rows: growth or infection tests; species: HIV-1; read-out: EC50

Rows are shuffled and stem from different studies. ECn: concentration that inhibits the pathogen or its effect by n%. Two numbers with a dash give a range or band. An empty or dashed field is not shown.

structure,strain,cells,mutations,conditions,read by,result
COC(=O)C(CC(C)C)NC(=O)CCCN1C(=O)c2ccccc2C1=O,IIIB,MT-4,-,-,MTT,>10.89 µM
N#Cc1cnn2c1nnc1ccc(Cl)cc12,IIIB,MT-4,-,-,cytopathic effect / MTT,>16.7 µM
Cc1ccc(S(=O)(=O)c2ccsc2NC(=O)c2ccccc2)cc1,IIIB,CEM + CEM/O,-,-,cytopathic effect / MTT,>40 µg/mL
CCOC(=O)c1cnn2c1nnc1cc(Cl)ccc12,IIIB,MT-4,-,-,cytopathic effect / MTT,>192 µM
CC(C)C1=C2[C@H]3CC[C@@H]4[C@@]5(C)CC[C@H](OC(=O)[C@H]6C[C@@H](C(=O)O)C6(C)C)C(C)(C)[C@@H]5CC[C@@]4(C)[C@]3(C)CC[C@@]2(CCNCC(F)(NC(=O)c2ccc(Cl)cc2)C(C)O)CC1=O,92HT599,MT-2,-,-,p24 / ELISA,<1 µM
O=C(CCCN1C(=O)c2ccccc2C1=O)NC(=S)NC(CO)C(=O)O,IIIB,MT-4,-,-,MTT,>89.5 µM
CCN1c2ncc(CCOc3cccc4c3CN(C)C(=O)N4C)cc2C(=O)N(C)c2cccnc21,-,C8166,RT-K103N Y181C,-,p24,0.01–0.05 µM
N#Cc1cnn2c1n[n+]([O-])c1ccccc12,IIIB,MT-4,-,-,cytopathic effect / MTT,>54 µM
COCc1nc(Nc2ccc(C#N)cc2)nc(Nc2c(C)cc(/C=C/C#N)cc2C)c1C(=O)N1CCCC(C(N)=O)C1,K103N+Y101C,MT4 CMV-EGFP,-,-,-,0.661 µM
CC(C)C1=C2[C@H]3CC[C@@H]4[C@@]5(C)CC[C@H](OC(=O)[C@H]6C[C@@H](C(=O)O)C6(C)C)C(C)(C)[C@@H]5CC[C@@]4(C)[C@]3(C)CC[C@@]2([C@@H](O)CNC(=O)c2ccc3nc[nH]c3c2)CC1=O,92HT599,MT-2,-,-,p24 / ELISA,<1 µM
CCOC(=O)C(C)NCc1cc2cc(S(=O)(=O)N(CC(C)C)C[C@@H](O)[C@H](Cc3ccccc3)NC(=O)O[C@H]3CO[C@H]4OCC[C@H]43)ccc2o1,HXB2 Recombinant,MT-4,-,-,cytopathic effect / MTT,0.03 µM
Cn1c(Sc2ccccc2)c([N+](=O)[O-])c(=O)n(C)c1=O,IIIB,MT-4,-,-,-,>81.2 µg/mL
O=[N+]([O-])c1ccc2c(c1)[n+]([O-])nc1c(Br)cnn12,IIIB,MT-4,-,-,cytopathic effect / MTT,>200 µM
Cn1c(Sc2cc[n+]([O-])cc2)c([N+](=O)[O-])c(=O)n(C)c1=O,IIIB,MT-4,-,-,-,>0.275 µg/mL
CCN1c2ncc(CCOc3cccc4c3CN(O)C4=O)cc2C(=O)N(C)c2cccnc21,IIIB,C8166,-,-,p24,<0.01 µM
CC(C)C1=C2[C@H]3CC[C@@H]4[C@@]5(C)CC[C@H](OC(=O)[C@H]6C[C@@H](C(=O)O)C6(C)C)C(C)(C)[C@@H]5CC[C@@]4(C)[C@]3(C)CC[C@@]2([C@@H](O)CNC[C@H](CO)NC(=O)c2ccc(Cl)cc2)CC1=O,92HT599,MT-2,-,-,p24 / ELISA,<1 µM
Cc1noc2ccc(S(=O)(=O)N(CC(C)C)C[C@@H](O)[C@H](Cc3ccccc3)NC(=O)O[C@H]3CO[C@H]4OCC[C@H]43)cc12,HXB2 Recombinant,MT-4,-,-,cytopathic effect / MTT,0.0018 µM
Cc1cn([C@H]2C[C@H](N=[N+]=[N-])[C@@H](CO)O2)c(=O)[nH]c1=O,89.6,PBMC,-,-,p24 / ELISA,0.01201 µM
COCc1nc(Nc2ccc(C#N)cc2)nc(Nc2c(C)cc(/C=C/C#N)cc2C)c1C(=O)N(C)OC,IIIB,MT4 CMV-EGFP,-,-,-,0.00191 µM
Nc1ncnc2c1ncn2[C@H]1C[C@]12C[C@@H]2CO,-,CEM + CEM-SS,-,-,-,>100 µM
O=C(CCCN1C(=O)c2ccccc2C1=O)NC(=S)NC(CS)C(=O)O,IIIB,MT-4,-,-,MTT,>90.9 µM
COc1cc(N=Nc2cc(S(=O)(=O)O)cc3cc(S(=O)(=O)O)cc(O)c23)c(C)cc1Nc1nc(Nc2ccncc2)nc(Nc2ccncc2)n1,IIIB,MT-2,-,-,p24,15.51 µM
CCN1c2ncc(CCOc3cccc4c3CNC(=O)N4CC(=O)O)cc2C(=O)N(C)c2cccnc21,IIIB,C8166,-,-,p24,>0.05 µM
Nc1nc2c(ncn2[C@H]2C[C@]23C[C@H]3CO)c(=O)[nH]1,RF,CEM + CEM-SS,-,-,-,>100 µM
CCN1c2ncc(CCOc3cccc4c3CNC(=O)N4)cc2C(=O)N(C)c2cccnc21,-,C8166,RT-K103N Y181C,-,p24,<0.01 µM
O=c1[nH]c(SCc2cn[nH]n2)nc(-c2cccc([N+](=O)[O-])c2)c1Cl,IIIB,-,-,-,-,1.02 µg/mL
O=[N+]([O-])c1cnn2c1nnc1cc(Cl)ccc12,IIIB,MT-4,-,-,cytopathic effect / MTT,>1.4 µM
COCc1nc(Nc2ccc(C#N)cc2)nc(Nc2c(C)cc(/C=C/C#N)cc2C)c1C(=O)NCc1ccncc1,K103N+Y101C,MT4 CMV-EGFP,-,-,-,0.0209 µM
O=C(Nc1sccc1S(=O)(=O)c1ccc(F)cc1)C(F)(F)F,IIIB,CEM + CEM/O,-,-,cytopathic effect / MTT,>1.6 µg/mL
Nc1ncnc2c1ncn2[C@H]1C[C@@]12C[C@H]2CO,RF,CEM + CEM-SS,-,-,-,>100 µM
COCc1nc(Nc2ccc(C#N)cc2)nc(Nc2c(C)cc(/C=C/C#N)cc2C)c1C(=O)NCCN(C)C,IIIB,MT4 CMV-EGFP,-,-,-,0.00389 µM
Nc1ncnc2c1ncn2[C@H]1C[C@]12C[C@H]2CO,RF,CEM + CEM-SS,-,-,-,>100 µM
COc1cc(N=Nc2cc(S(=O)(=O)O)cc3cc(S(=O)(=O)O)cc(O)c23)c(C)cc1Nc1nc(Nc2ncncc2OC)nc(Nc2ncncc2OC)n1,IIIB,MT-2,-,-,p24,>80 µM
CCOC(=O)c1cnn2c1n[n+]([O-])c1cc(Cl)ccc12,IIIB,MT-4,-,-,cytopathic effect / MTT,>200 µM
CCN1c2ncc(CCOc3cccc4c3CNC4=O)cc2C(=O)Nc2c(C)ccnc21,-,C8166,RT-K103N Y181C,-,p24,<0.01 µM
CC(C)[C@H](NC(=O)[C@H](CO)NC(=O)[C@H](CS)NC(=O)CCC(=O)NCCCOCCOCCCN)C(=O)N[C@H](C(=O)N[C@@H](CS)C(=O)NCC(=O)O)[C@@H](C)O,BaL,PBMC(PHA STIM.) + PBMC,-,-,p24,1.32 µM
Nc1ncnc2c1ncn2[C@H]1C=C[C@@H](CO)O1,IIIB,MT-4,-,-,cytopathic effect / trypan blue,41 µM
COC(=O)c1ccccc1S(=O)(=O)c1ccsc1NC(=O)C(F)(F)F,IIIB,CEM + CEM/O,-,-,cytopathic effect / MTT,>20 µg/mL
CC(NC(=S)NC(=O)CCCN1C(=O)c2ccccc2C1=O)C(=O)O,IIIB,MT-4,-,-,MTT,>125 µM
CC(C)C1=C2[C@H]3CC[C@@H]4[C@@]5(C)CC[C@H](OC(=O)[C@H]6C[C@@H](C(=O)O)C6(C)C)C(C)(C)[C@@H]5CC[C@@]4(C)[C@]3(C)CC[C@@]2([C@@H](O)CNCC(C)(C)NC(=O)c2ccc(Cl)cc2O[C@@H]2CCOC2)CC1=O,92HT599,MT-2,-,-,p24 / ELISA,<1 µM
COCc1nc(Nc2ccc(C#N)cc2)nc(Nc2c(C)cc(/C=C/C#N)cc2C)c1C(=O)NCc1cccnc1,IIIB,MT4 CMV-EGFP,-,-,-,0.00288 µM
Nc1ncnc2c1ncn2[C@H]1C[C@@]12C[C@@H]2CO,-,CEM + CEM-SS,-,-,-,>100 µM
CC(=O)Nc1sc(Cl)cc1S(=O)(=O)c1ccccc1[N+](=O)[O-],IIIB,CEM + CEM/O,-,-,cytopathic effect / MTT,>40 µg/mL
CC(C)C1=C2[C@H]3CC[C@@H]4[C@@]5(C)CC[C@H](OC(=O)[C@H]6C[C@@H](C(=O)O)C6(C)C)C(C)(C)[C@@H]5CC[C@@]4(C)[C@]3(C)CC[C@@]2([C@@H](O)CNCc2ccccc2)CC1=O,92HT599,MT-2,-,-,p24 / ELISA,<1 µM
O=[N+]([O-])c1ccc2c(c1)nnc1c([N+](=O)[O-])cnn12,IIIB,MT-4,-,-,cytopathic effect / MTT,>1.4 µM
CC(=O)N1CCC(C(=O)N(CCCN2CCC(Cc3ccc(C(N)=O)cc3)CC2)c2ccc(C)c(Cl)c2)CC1,HKW Clinical isolates,PBMC,-,-,p24,0.0017 µM
CC1(C)CCC2=C(O1)c1ccccc1C(=O)C2=O,IIIB,PBMC,-,-,p24,~0.5 µM
CCCn1c(Sc2ccccc2)c([N+](=O)[O-])c(=O)[nH]c1=O,IIIB,MT-4,-,-,-,>72.9 µg/mL
Cc1nnc(-c2ccc(CNCC[C@@]34CC[C@]5(C)[C@H](CC[C@@H]6[C@@]7(C)CC[C@H](OC(=O)[C@H]8C[C@@H](C(=O)O)C8(C)C)C(C)(C)[C@@H]7CC[C@]65C)C3=C(C(C)C)C(=O)C4)cc2)o1,92HT599,MT-2,-,-,p24 / ELISA,<1 µM
CCN1c2ncc(CCOc3cccc4c3CNC(=O)N4C)cc2C(=O)N(C)c2cccnc21,IIIB,C8166,-,-,p24,<0.01 µM
CC(C)(CS(=O)(=O)[O-])[NH2+]C(=O)C(CC(F)(OC(F)(F)C(F)(OC(F)(F)C(F)(OC(F)(F)C(F)(F)C(F)(F)F)C(F)(F)F)C(F)(F)F)C(F)(F)F)C(F)(OC(F)(F)C(F)(OC(F)(F)C(F)(OC(F)(F)C(F)(F)C(F)(F)F)C(F)(F)F)C(F)(F)F)C(F)(F)F,IIIB-R,MT-4,-,-,cytopathic effect / MTT,0.71 µg/mL
CCc1c(-c2coc(CC/C(C)=C/c3ccccc3)n2)oc(OC)c(C)c1=O,IIIB,MOLT-4/IIIB + MOLT-4,-,-,syncytia,>102 µM
CC(=O)CCC(=O)NCCCOCCOCCCNC(=O)CNC(=O)[C@H](CS)NC(=O)[C@@H](NC(=O)[C@@H](NC(=O)[C@H](CO)NC(=O)[C@@H](N)CS)C(C)C)[C@@H](C)O,BaL,PBMC(PHA STIM.) + PBMC,-,-,p24,>1.32 µM
COCc1nc(Nc2ccc(C#N)cc2)nc(Nc2c(C)cc(/C=C/C#N)cc2C)c1C(=O)NC1CC1,K103N+Y101C,MT4 CMV-EGFP,-,-,-,0.0224 µM
CC(C)(C)C1=NC(c2ccccc2)(C(F)(F)F)NC(=O)N1,NL4-3,MT-4,-,pseudotyped,luciferase / reporter gene / single cycle,0.0465 µM
NC(N)=NCCCC(NC(=S)NC(=O)CCCN1C(=O)c2ccccc2C1=O)C(=O)O,IIIB,MT-4,-,-,MTT,>12.6 µM
O=c1[nH]c(SCc2cn[nH]n2)nc(-c2ccc(F)cc2)c1Cl,IIIB,-,-,-,-,0.69 µg/mL
COCc1nc(Nc2ccc(C#N)cc2)nc(Nc2c(C)cc(/C=C/C#N)cc2C)c1C(=O)N1CCN(CCO)CC1,IIIB,MT4 CMV-EGFP,-,-,-,0.0372 µM
Nc1nc(Sc2ccccc2)c([N+](=O)[O-])c(=O)[nH]1,IIIB,MT-4,-,-,-,>88.07 µg/mL

7 of the rows above, restated:

| structure | strain | cells | mutations | conditions | read by | result |
|---|---|---|---|---|---|---|
| CCN1c2ncc(CCOc3cccc4c3CN(O)C4=O)cc2C(=O)N(C)c2cccnc21 | IIIB | C8166 | - | - | p24 | <0.01 µM |
| COCc1nc(Nc2ccc(C#N)cc2)nc(Nc2c(C)cc(/C=C/C#N)cc2C)c1C(=O)NCc1ccncc1 | K103N+Y101C | MT4 CMV-EGFP | - | - | - | 0.0209 µM |
| CC(C)(C)C1=NC(c2ccccc2)(C(F)(F)F)NC(=O)N1 | NL4-3 | MT-4 | - | pseudotyped | luciferase / reporter gene / single cycle | 0.0465 µM |
| Nc1ncnc2c1ncn2[C@H]1C[C@@]12C[C@H]2CO | RF | CEM + CEM-SS | - | - | - | >100 µM |
| Cn1c(Sc2ccccc2)c([N+](=O)[O-])c(=O)n(C)c1=O | IIIB | MT-4 | - | - | - | >81.2 µg/mL |
| NC(N)=NCCCC(NC(=S)NC(=O)CCCN1C(=O)c2ccccc2C1=O)C(=O)O | IIIB | MT-4 | - | - | MTT | >12.6 µM |
| N#Cc1cnn2c1nnc1ccc(Cl)cc12 | IIIB | MT-4 | - | - | cytopathic effect / MTT | >16.7 µM |